Results of unrelated studies side by side (data: NIAID ChemDB).

Shared fields: growth or infection tests; agent: Rhinovirus

ECn: concentration that inhibits the pathogen or its effect by n%. Lines come from different laboratories, so protocols vary. A number after MIC or MFC names an inhibition level or a share of isolates. Two numbers with a dash give a range or band.

CSc1nsc(-c2ccc(OCCOc3ccccc3)cc2)c1C#N ; endpoint: EC50 ; read by: cytopathic effect ; cell line: HELA-OHIO ; strain: Serotype 15 (group B) ; value: >20 µM
CN(C)c1nc(Cl)nc2c1ncn2Cc1ccc(Cl)cc1 ; endpoint: EC50 ; read by: plaque count ; cell line: M-HELA ; strain: Serotype 21 ; value: >5 µM
Cn1c2ccccc2c2nnc(Nc3ccc(O)cc3)nc21 ; endpoint: EC50 ; read by: plaque count ; cell line: WI-38 ; strain: 1059 ; value: 20 µg/mL
CCOc1noc2cc(OCCC3CCN(c4nnc(C)s4)CC3)ccc12 ; endpoint: EC50 ; read by: cytopathic effect ; cell line: MRC-5 ; strain: Serotype 2 ; value: 0.007 µg/mL
CSc1nsc(-c2ccc(OCCCCOc3ccccc3)cc2)c1C#N ; endpoint: EC50 ; read by: cytopathic effect ; cell line: HELA-OHIO ; strain: Serotype 51 (group B) ; value: >20 µM
Cc1ccc(CCCOc2cc(C)c(-c3noc(C(F)(F)F)n3)c(C)c2)nn1 ; endpoint: EC50 ; read by: cytopathic effect ; cell line: HeLa ; strain: serotypes 3 4 5 9 16 18 38 66 75 67 ; value: 0.036 µg/mL
CN(C)c1ncnc2c1ncn2Cc1ccc([N+](=O)[O-])cc1 ; endpoint: EC50 ; read by: plaque count ; cell line: M-HELA ; strain: Serotype 1B ; value: >50 µM
COC(=O)c1cc(CCCOc2c(C)cc(-c3noc(C)n3)cc2C)on1 ; endpoint: EC50 ; read by: cytopathic effect ; cell line: HeLa ; strain: Serotype 25 ; value: 0.019 µg/mL
Cn1c2ccccc2c2n[nH]c(=S)nc21 ; endpoint: EC50 ; read by: plaque count ; cell line: WI-38 ; strain: 33342 ; value: 0.16 µg/mL
CCCn1oc2cc(OCCC3CCN(c4ccc(C)nn4)CC3)ccc2c1=O ; endpoint: EC50 ; read by: cytopathic effect ; cell line: MRC-5 ; strain: Serotype 14 ; value: 0.237 µg/mL
Cc1cc(OCCCc2ccc(F)nn2)cc(C)c1-c1noc(C(F)(F)F)n1 ; endpoint: EC80 ; read by: cytopathic effect ; cell line: HeLa ; strain: serotypes 3 4 5 9 16 18 38 66 75 67 ; value: 0.44 µg/mL
CCOC(=O)/C=C/[C@H](C[C@@H]1CCNC1=O)NC(=O)[C@@H](CC(=O)[C@@H](NC(=O)c1cc(C)on1)C(C)C)Cc1ccc(F)cc1 ; endpoint: EC50 ; read by: cytopathic effect / visual reading ; cell line: OHIO HELA-I ; strain: Isolate 6 ; value: 0.02 µg/mL
CN(C)c1nc(Cl)nc2c1ncn2Cc1ccc(C#N)cc1 ; endpoint: EC50 ; read by: plaque count ; cell line: M-HELA ; strain: Serotype 1B ; value: >50 µM
CC(=O)c1cc(CCCOc2c(C)cc(-c3noc(C)n3)cc2C)co1 ; endpoint: EC80 ; read by: cytopathic effect ; cell line: HeLa ; strain: 15 serotype mixtures ; value: 0.3 µM
OCCCNc1nnc2c3ccccc3n(CCc3ccccc3)c2n1 ; endpoint: EC50 ; read by: plaque count ; cell line: WI-38 ; strain: 1059 ; value: 4 µg/mL
C#CCOc1cc(OC)ccc1-c1cc(N(CC)CC)no1 ; endpoint: EC50 ; read by: cytopathic effect ; cell line: HeLa ; strain: Serotype 9 (group B) ; value: >40 µM
CSc1nsc(-c2ccc(OCCOc3ccc(C#N)cc3)cc2)c1C#N ; endpoint: EC50 ; read by: cytopathic effect ; cell line: HELA-OHIO ; strain: Serotype 59 (group B) ; value: >2 µM
Cc1cc(CCCCCOc2cc(Cl)c(-c3nnco3)c(Cl)c2)on1 ; endpoint: MIC80 ; strain: Serotype 30 ; value: 0.1 µg/mL
Cn1c2ccccc2c2nnc(NCCCO)nc21 ; endpoint: EC50 ; read by: plaque count ; cell line: WI-38 ; strain: 2060 ; value: 50 µg/mL
COCc1ccc(CCCOc2c(C)cc(-c3noc(C(F)F)n3)cc2C)nn1 ; endpoint: EC50 ; read by: cytopathic effect ; cell line: HeLa ; strain: serotypes 3 4 5 9 16 18 38 66 75 67 ; value: 0.078 µg/mL
CN(c1cccc(F)c1)c1nc(C(F)(F)F)nc2c1ncn2Cc1cccc(F)c1 ; endpoint: EC50 ; read by: plaque count ; cell line: M-HELA ; strain: Serotype 1B ; value: 0.9 µM
Cc1cc(CCCOc2c(C)cc(-c3noc(C(F)(F)F)n3)cc2C)on1 ; endpoint: EC50 ; strain: Serotype 1A ; value: <1.4 µM
CCSc1ncnc2c1ncn2[C@@H]1OC2COP(=O)(O)OC2[C@H]1O ; endpoint: MIC ; strain: TYPE 13 ; value: 1–32 µg/mL
CCN(CC)c1cc(-c2ccc(OC)cc2OC)on1 ; endpoint: EC50 ; read by: cytopathic effect ; cell line: HeLa ; strain: Serotype 14 ; value: >362 µM
Cc1ccc(N2CCC(CCOc3ccc4nc(C)oc4c3)CC2)nn1 ; endpoint: EC50 ; read by: cytopathic effect ; cell line: MRC-5 ; strain: Serotype 14 ; value: >0.5 µg/mL
CSc1nsc(-c2ccc(OCCOc3ccc([N+](=O)[O-])cc3)cc2)c1C#N ; endpoint: EC50 ; read by: cytopathic effect ; cell line: HELA-OHIO ; strain: Serotype 45 (group A) ; value: >2 µM
CCOc1nc2ccc(OCCCCCc3cc(C)no3)cc2o1 ; endpoint: EC50 ; read by: cytopathic effect ; cell line: MRC-5 ; strain: Serotype 14 ; value: 0.118 µg/mL
COc1ccc(-c2cc(N3CCCC3)no2)c(O)c1 ; endpoint: EC50 ; read by: cytopathic effect ; cell line: HeLa ; strain: Serotype 89 (group B) ; value: 45.2 µM
CN(C)c1ncnc2c1ncn2Cc1ccc(OCc2ccccc2)cc1 ; endpoint: EC50 ; read by: plaque count ; cell line: M-HELA ; strain: Serotype 1B ; value: >50 µM
CCOC(=O)c1ccc(OCCC2CCN(c3ccc(C)nn3)CC2)cc1 ; endpoint: EC50 ; read by: cytopathic effect ; cell line: HELA-OHIO ; strain: Serotype 59 (group B) ; value: 0.03 µM
N#Cc1cc([N+](=O)[O-])ccc1Oc1ccc(Cl)c(Cl)c1 ; endpoint: EC50 ; read by: cytopathic effect ; cell line: HeLa ; strain: TYPE 8 ; value: 0.2 µg/mL
Nc1nnc2c(n1)[nH]c1ccc(CO)cc12 ; endpoint: EC50 ; read by: plaque count ; cell line: WI-38 ; strain: 1059 ; value: 100 µg/mL
Cc1nc(-c2cc(C)c(OCCCc3cc(C4CC4)no3)c(C)c2)no1 ; endpoint: EC50 ; read by: cytopathic effect ; cell line: HeLa ; strain: Serotype 67 ; value: 0.08 µg/mL
CCOc1cc(OC)ccc1-c1cc(N(CC)CC)no1 ; endpoint: EC50 ; read by: cytopathic effect ; cell line: HeLa ; strain: Serotype 42 (group A) ; value: >90 µM
CSc1nsc(-c2ccc(OCc3ccccc3)cc2)c1C#N ; endpoint: EC50 ; read by: cytopathic effect ; cell line: HELA-OHIO ; strain: Serotype 14 (group A) ; value: 25 µM
CC(=O)c1ccc(CCCOc2c(C)cc(-c3noc(C(F)(F)F)n3)cc2C)nn1 ; endpoint: EC50 ; read by: cytopathic effect ; cell line: HeLa ; strain: serotypes 3 4 5 9 16 18 38 66 75 67 ; value: 0.14 µg/mL
CCO/N=C/c1ccc(OCCC2CCN(c3ccc(Cl)nn3)CC2)cc1 ; endpoint: EC50 ; read by: neutral red ; cell line: KB ; strain: 6360-CV41 (ICAM-1 receptor group 63) ; value: 0.013 µM
O=P1(O)OCC2O[C@@H](n3cnc4c(NO)ncnc43)[C@H](O)C2O1 ; endpoint: MIC ; strain: TYPE 1A ; value: 100 µg/mL
CCN(CC)c1noc(-c2ccc(O)cc2O)c1Cc1c(N(CC)CC)noc1-c1ccc(OC)cc1O ; endpoint: EC50 ; read by: cytopathic effect ; cell line: HeLa ; strain: Serotype 2 ; value: >3.5 µM
CCOc1cc(CCCOc2c(C)cc(-c3noc(C)n3)cc2C)on1 ; endpoint: EC50 ; read by: cytopathic effect ; cell line: HeLa ; strain: Serotype 89 ; value: 0.003 µg/mL
CCOC(=O)c1ccc(OCCC2CCN(c3ccc(C)nn3)CC2)cc1 ; endpoint: EC90 ; strain: Serotype 2 ; value: 0.035 µM
CCOc1nc2ccc(OCCC3CCN(c4ccc(Cl)nn4)CC3)cc2o1 ; endpoint: EC50 ; read by: cytopathic effect ; cell line: MRC-5 ; strain: Serotype 14 ; value: 0.015 µg/mL
CC(=O)c1coc(CCCOc2c(C)cc(-c3noc(C)n3)cc2C)c1 ; endpoint: EC50 ; read by: cytopathic effect ; cell line: HeLa ; strain: 15 serotype mixtures ; value: <0.4 µM
Cc1cc(CCCCCOc2cc(Cl)c(-c3nnc(C)o3)c(Cl)c2)on1 ; endpoint: MIC80 ; strain: Serotype 6 ; value: 0.46 µg/mL
Fc1cccc(Cn2cnc3c(Nc4cccc(F)c4)nc(C(F)(F)F)nc32)c1 ; endpoint: EC50 ; read by: plaque count ; cell line: M-HELA ; strain: Serotype 86 ; value: >5 µM
CC(=O)OCCCNc1nnc2c3ccccc3n(C)c2n1 ; endpoint: EC50 ; read by: plaque count ; cell line: WI-38 ; strain: 33342 ; value: 20 µg/mL

Repeating the first 6 entries:

SMILES,endpoint,read by,cell line,strain,value
CSc1nsc(-c2ccc(OCCOc3ccccc3)cc2)c1C#N,EC50,cytopathic effect,HELA-OHIO,Serotype 15 (group B),>20 µM
CN(C)c1nc(Cl)nc2c1ncn2Cc1ccc(Cl)cc1,EC50,plaque count,M-HELA,Serotype 21,>5 µM
Cn1c2ccccc2c2nnc(Nc3ccc(O)cc3)nc21,EC50,plaque count,WI-38,1059,20 µg/mL
CCOc1noc2cc(OCCC3CCN(c4nnc(C)s4)CC3)ccc12,EC50,cytopathic effect,MRC-5,Serotype 2,0.007 µg/mL
CSc1nsc(-c2ccc(OCCCCOc3ccccc3)cc2)c1C#N,EC50,cytopathic effect,HELA-OHIO,Serotype 51 (group B),>20 µM
Cc1ccc(CCCOc2cc(C)c(-c3noc(C(F)(F)F)n3)c(C)c2)nn1,EC50,cytopathic effect,HeLa,serotypes 3 4 5 9 16 18 38 66 75 67,0.036 µg/mL